PubChem BioAssay AID504761 | Drosophila RNAi Screening Center, 2011

Aim: 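Fly genes whose silencing reduces dengue virus type 2 infection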 (primary screen)
Cells: D.Mel-2 cells from Drosophila
Reagents: long dsRNA against Drosophila genes
Treatment: infection with dengue virus type 2; dose and infection time not stated
Detection: 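Cells stained for dengue envelope protein and imaged; percent of infected cells per well on duplicate plates, ranked by infection, with stained nuclei counted for cell number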
Reading the numbers: infection score: higher = more virus-infected cells; cell count: higher = more cells in the well
Active means: 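Very low infection ranking in both replicate wells (chance probability at most 0.065), then a retest showing infection dropped 1.5-fold or more at p below 0.05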
Meaning of the calls: active = confirmed: knock-down lowers infection; inactive = not picked or not confirmed
The screen tested about 22,000 reagents; this is a random part of those that have a named target and a result. Of all reagents, 116 (0.52%) were called active. 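Calls depend on retest data that are not deposited; infection was ranked per plate without normalising between plates; the unit of the infection score is not given.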 The raw values are shown without normalisation. A number with no mark means an inactive call. Names joined by + are all predicted targets of the reagent. Not given: the amount of reagent, the time to read-out.

no.	gene	DRSC id	infection score, replicate 1	infection score, replicate 2	cell count, replicate 1	cell count, replicate 2
1	CG7737	DRSC07033	15.6	13.4	5587	5863
2	DCTN5-p25 (Dynactin 5, p25 subunit)	DRSC03525	26.8	15	5796	5461
3	DCTN5-p25 (Dynactin 5, p25 subunit)	DRSC26867	5.08	1.64	6457	6203
4	gish (gilgamesh)	DRSC16154	11.6	6.5	5285	5663
5	caup (caupolican)	DRSC23050	2.76	5.95	6276	6940
6	CG12065	DRSC17798	4.42	3.65	5884	5781
7	CG12065	DRSC17799	1.64	3.93	6536	6722
8	CG11555	DRSC24179	6.45	10.3	5954	5855
9	Atg3 (Autophagy-related 3)	DRSC10736	8.22	11.4	6010	6463
10	Atg3 (Autophagy-related 3)	DRSC21758	10.2	1.53	6936	6601
11	Atg3 (Autophagy-related 3)	DRSC29687	17.4	15.1	1719	5856
12	scrt (scratch)	DRSC23001	1.12	3.2	5807	6529
13	scrt (scratch)	DRSC25792	1.86	2.09	6521	6113
14	CG8613	DRSC07222	1.46	6.99	5881	6438
15	CG8613	DRSC28364	13.6	9.83	5980	1659

Just “infection score, replicate 1”, for 2 of the entries above:
scrt (scratch) [DRSC25792]	1.86
CG8613 [DRSC07222]	1.46

Continued:
no.	gene	DRSC id	infection score, replicate 1	infection score, replicate 2	cell count, replicate 1	cell count, replicate 2
16	CG13698	DRSC10047	2.08	19	6432	5925
17	CG5676	DRSC02875	1.66	1.44	6728	6383
18	CR31824 (pseudo)	DRSC01517	1.89	1.71	5729	5390
19	CR31824 (pseudo)	DRSC29841	10.5	4.49	6290	6194
20	asRNA:CR42547 + CG15674	DRSC04264	10.9	20.6	4539	6151
21	CG34210	DRSC04579	10.8	7.47	6251	6561
22	tra (transformer)	DRSC11405	2.88	1.3	5829	6233
23	CG32040	DRSC22459	0.69	2.2	6492	6877
